According to publication PMC10572922:
For some assays here: A negative result means that nothing was seen under these conditions. For some assays here: Construct, isoform or probe ends are uncertain for at least one entry.

Legend:
Assay in all cases: EMSA
[1] = test system: ArcA-P (phosphorylated ArcA) (Plesiomonas shigelloides); settings: phosphorylated, PdhR: 50 ng probe, 20 mM Tris-HCl pH 7.5, 100 mM KCl, 10 mM MgCl2, 5% glycerol, 2 mM DTT, 37 C 30 min, ArcA: 100 mM Tris-HCl pH 7.5, 10 mM MgCl2, 2 mM DTT, recombinant protein, residues 1-238, protein details: His6 (pET-28a), probe letters rebuilt from the primers and the genome
[2] = test system: CRP (MBP-CRP) (Plesiomonas shigelloides); settings: cAMP 0.5 uM, PdhR: 50 ng probe, 20 mM Tris-HCl pH 7.5, 100 mM KCl, 10 mM MgCl2, 5% glycerol, 2 mM DTT, 37 C 30 min, ArcA: 100 mM Tris-HCl pH 7.5, 10 mM MgCl2, 2 mM DTT, recombinant protein, residues 1-210, protein details: MBP (pMAL-c5X), probe letters rebuilt from the primers and the genome
[3] = test system: FNR (Plesiomonas shigelloides); settings: PdhR: 50 ng probe, 20 mM Tris-HCl pH 7.5, 100 mM KCl, 10 mM MgCl2, 5% glycerol, 2 mM DTT, 37 C 30 min, ArcA: 100 mM Tris-HCl pH 7.5, 10 mM MgCl2, 2 mM DTT, recombinant protein, residues 1-249, protein details: His6 (pET-28a), probe letters rebuilt from the primers and the genome
[4] = test system: PdhR (MBP-PdhR) (Plesiomonas shigelloides); settings: PdhR: 50 ng probe, 20 mM Tris-HCl pH 7.5, 100 mM KCl, 10 mM MgCl2, 5% glycerol, 2 mM DTT, 37 C 30 min, ArcA: 100 mM Tris-HCl pH 7.5, 10 mM MgCl2, 2 mM DTT, recombinant protein, residues 1-258, protein details: MBP (pMAL-c5X), probe letters rebuilt from the primers and the genome

## TTGGGATCAATTTCGCCGACTGTCAATTGGTATTACCAATTTTACGGTGCGATAAAAATTACCAGAATCCCCAAAATGTGTCCAGACGAAAATTGATCTGAATCATGTTATACCGCCAATGGTAACAAAAACGCTTCAGCTAACATAACATTTGTCATACTTAAATTGGTCAGACCATTTAACGTTTGTCGTTTTAAACGCTTCGCTAAAGCTGTAACGAGTCAGCTTTATAACTGGCGGGAATAATCGGCCTTATTAGCGCGAAACTCGTATTTTTGGCTTATCGCGCTCAGGGAATTGACCTCCCGATCACGTACATAACCGCAGCACAAACCGTACATTCGCTGCTCAAATGTCACCTTTAGCGGGGA (double strand) [pdhR promoter]
[1]
  binding result: binds
[2]
  binding result: no binding
[3]
  binding result: no binding
[4]
  binding result: binds

## GCGCCACGATTTTACAACCTTGTTAAAATCTCGCAAACAATGTTGCACCCGTTGTGCCTTATTCGTCGGTGCGGTCACAGCTTAAGCCGAAACCGCACCGGATCTGTCTTACATCACCAGACGGCGGATGTCAGACAGCGCGTTGTTCAGGAATGTGATGAAGCGGGCACCGTCAGCGCCATCGATCACGCGGTGATCGTAAGACAGTGACAGAGGCAGCATCAGACGTGGTGCGAACTCTTTGCCGTTCCACTTCGGCTTCATCTCAGACTTGGACACACCCAGAATGGCCACTTCCGGCGCATTCACAATTGGAGT (double strand) [lpdA (lpd) promoter]
[1]
  binding result: binds
[2]
  binding result: no binding
[3]
  binding result: no binding
[4]
  binding result: no binding

## ACCAAGCAAAATCACCCACCGGCAGTAAATCGACACCCGCCTCTTTTTGCAATGCCCAGTGACGCGCTCGTAATTGTTGACCACATGCCAATAATGCAGCCTGCTCAATCTCACCGGCCCAATACTGCTCTAATGCTTTTTTCAGCTCGCGATGCAATCCAATACGCGGAAATCCGAGGGTATGACTATGAATACTCATGCTTAACTCCATTTAGCCGTCCAGATGTTTACACATCTATAATTCACGGTTATGGTAAAACCAACAAACGGAAGTTATTCATGTGCATCATGAGCGAAATTCATGATGAGCCTTATTTGGTCAGGGA (double strand) [metR promoter]
[4]
  binding result: binds

## GCATGCTCCTATGACACAGCGCATTCATGAGGGAAATATAGCCACCAAATTCCGGTTAACACTGTATTACTATTGTTCACCGTTTATCACGGTTCTGCGACCAAGTGTTGCTGATGTGCTGAGTATGCAAAATCAGCGTTAAATGGTAATACCCCGAAAGAGGTGACTAGCGGGTAACCTTGCGCAAGATCAATTCTTGGCACGGATTTTACGTGACCTAGATCTCTGAATCACAACAGAAAATTGGGGCGAAGCACGCCGCTTTTGTCTGACATATTAGCAAGACCAAGTGGGCTAAAATGCACGTTCAACCGCGTGTTGAAACACGGCACGTTGAAAGAGTGCGCTT (double strand) [napF promoter]
[4]
  binding result: no binding

## AAAGTTGCTTAATTGGTTGCATAATTATTTTGTTTTTTGTCACAAAAAAAGAGTTTTTCCGGTATCTGCGCAGGTTATTAACGCGAAAATGAAATATCTCGTGTGGATAAAAAGTAGGCGAATGAGATTTCTGATGTATATAATTGCGTCAATAATGTGACGGCTGGTGTTGCTTAATGTGTCAAAAATCGCGAAGATAGCCTCGATTTCATAGTGATGAGATCCGCTTCTGAAACTTATTGCGATTTTACAAATTATTGCGTGTTACAAATTAAAGGGAGAGCTTGTTATCACTCTTGTTTAAGAGCTCGAAGCAAGCAGTTATGGAGGGGAGC (double strand) [tfoX promoter]
[4]
  binding result: no binding
